Compound potency records, mixed from different reports. Data source: NIAID ChemDB in PubChem.

Shared fields: tests in culture; agent: Aspergillus fumigatus; measure: MIC80

An empty or dashed field is not shown. Rows are shuffled and stem from different studies. A number after MIC or MFC names an inhibition level or a share of isolates.

SMILES | strain or isolate | read by | value
CCCCCCCCCCCCC(=O)OC1CCN(CC(O)(Cn2cncn2)c2ccc(F)cc2F)CC1 | 0504656 | broth dilution | 30.8 µM
CN1CCN(c2n[nH]c(N3C(=O)CS[C@@H]3c3ccc4c(c3)OCO4)n2)CC1 | 165.86 | broth dilution | 50 µg/mL
CC1(C)C=Cc2ccc3c(=O)c4ccccc4oc3c2O1 | - | - | >250 µg/mL
C[C@@H](N1CCN(Cc2cn(Cc3ccc(Cl)cc3Cl)c3c(F)cccc23)CC1)[C@](O)(Cn1cncn1)c1ccc(F)cc1F | ATCC 16424 | resazurin | 8 µg/mL
O=C(/C=C/c1ccc(Cl)cc1Cl)OC1CCN(CC(O)(Cn2cncn2)c2ccc(F)cc2F)CC1 | 0504656 | broth dilution | 1.865 µM
C[C@@H](N1CCN(Cc2cn(Cc3ccc(C(F)(F)F)cc3)c3cc(Cl)ccc23)CC1)[C@](O)(Cn1cncn1)c1ccc(F)cc1F | ATCC 16424 | resazurin | 4 µg/mL
O=C(/C=C/c1ccc(Br)cc1)OC1CCN(CC(O)(Cn2cncn2)c2ccc(F)cc2F)CC1 | 0504656 | broth dilution | 1.831 µM
C[C@@H](N1CCN(Cc2cn(Cc3ccc(F)cc3F)c3c(C#N)cccc23)CC1)[C@](O)(Cn1cncn1)c1ccc(F)cc1F | ATCC 16424 | resazurin | 32 µg/mL
CCCCCC | - | - | 8 µg/mL
Cc1ccc(/C=C/C(=O)OC2CCN(CC(O)(Cn3cncn3)c3ccc(F)cc3F)CC2)cc1 | 0504656 | broth dilution | 0.518 µM
C[C@@H](N1CCN(Cc2cn(-c3ccc(F)cc3)c3cc(Cl)ccc23)CC1)[C@](O)(Cn1cncn1)c1ccc(F)cc1F | ATCC 16424 | resazurin | 1 µg/mL
CC1(C)Oc2c(ccc3c(=O)c4ccccc4oc23)C[C@@]1(C)O | - | - | >250 µg/mL
C[C@@H](N1CCN(Cc2cn(Cc3ccc(F)cc3F)c3ccc(C#N)cc23)CC1)[C@](O)(Cn1cncn1)c1ccc(F)cc1F | ATCC 16424 | resazurin | 1 µg/mL
O=C(COc1cccc2ccccc12)OC1CCN(CC(O)(Cn2cncn2)c2ccc(F)cc2F)CC1 | 0504656 | broth dilution | 1.915 µM
CC(C)(O)C1Cc2ccc3c(=O)c4c(O)cccc4oc3c2O1 | - | - | 16 µg/mL
C[C@@H](N1CCN(Cc2cn(Cc3ccc(Cl)cc3Cl)c3ccc(C#N)cc23)CC1)[C@](O)(Cn1cncn1)c1ccc(F)cc1F | ATCC 16424 | resazurin | 2 µg/mL
COc1ccc2oc3ccccc3c(=O)c2c1O | - | - | >250 µg/mL
O=C(/C=C/c1ccc(F)cc1)OC1CCN(CC(O)(Cn2cncn2)c2ccc(F)cc2F)CC1 | 0504656 | broth dilution | 0.514 µM

The last 2 rows once more:

SMILES	strain or isolate	read by	value
COc1ccc2oc3ccccc3c(=O)c2c1O	-	-	>250 µg/mL
O=C(/C=C/c1ccc(F)cc1)OC1CCN(CC(O)(Cn2cncn2)c2ccc(F)cc2F)CC1	0504656	broth dilution	0.514 µM